This is an account of results in PubChem BioAssay AID1272365 (Small Molecule Screening Facility, UW Madison, 2020).

Molecules are shown by their SMILES. Only a part is listed here, and it is no random draw. Calls of active or inactive are those of the source. No stated cut-off is given here; in the data, active means inhibition mostly above about 37% (no sharp cut-off); inactive means mostly below about 20%.

For the test, the system named is PriA–SSB C-terminal tail interaction (Klebsiella pneumoniae). Put plainly: inhibitors of Klebsiella pneumoniae PriA binding to SSB C-terminal tail, primary screen, biochemical, AlphaScreen (AID 1272365).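 Further: plate controls were negative control peptide for no effect and reference peptide for full effect.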 The following applies: AlphaScreen SSBct-PriA binding, biotinylated peptide; at 33 µM; stronger effect = higher value. A general note: Alpha assays give light when donor and acceptor beads are brought close together.
`CC(C)c1ccc(OP(C)(=O)Nc2ccc(SC(F)(F)F)cc2)cc1` (stereo not drawn): the inhibition was inactive: -12.3%.
Then `CP(=O)(Nc1ccccc1F)Oc1ccccc1` (stereo not drawn), with inactive: -15%; and `O=C(OCCN1CCN(CCOCc2ccccc2)CC1)C(O)(c1ccccc1)c1ccccc1`, with inactive: -0.26%; and `O=C(OC1CN2CCC1CC2)c1ccc([N+](=O)[O-])cc1` (stereo not drawn), with inactive: -5.28%.
Turning to `COc1ccc(OP(C)(=O)Nc2ccc(SC(F)(F)F)cc2)cc1` (stereo not drawn), the inhibition was inactive: -4.92%.
Turning to `CCOC(=O)c1ccc(NP(C)(=O)Oc2ccc(F)cc2)cc1` (stereo not drawn), the inhibition is inactive: 1.16%.
For `CCCCCOc1ccc(NP(C)(=O)Oc2ccc(Cl)cc2Cl)cc1` (stereo not drawn) the value was inactive: -16.7%; for `O=[N+]([O-])c1cc([N+](=O)[O-])c(OC2CCCCC2O)c([N+](=O)[O-])c1` (stereo not drawn), inactive: -12.4%.
Take `CP(=O)(Nc1ccccc1)Oc1ccc(F)cc1` (stereo not drawn): the inhibition is inactive: 0.95%.
As for `CCN(CC)CCCOC(=O)C(O)(c1ccccc1)C1CCCCC1` (stereo not drawn), the inhibition was inactive: 1.06%.
For `Cc1c([N+](=O)[O-])cc([N+](=O)[O-])c(Br)c1[N+](=O)[O-]` the value was inactive: -6.78%.
Then `COc1ccc(NP(C)(=O)Oc2ccccc2OC)cc1` (stereo not drawn), with inactive: 1.2%.
For `C=CCN1CCN(CCOC(=O)C(O)(c2ccccc2)c2ccccc2)CC1` the value was inactive: -11%; for `COc1ccc(OP(C)(=O)Nc2cccc(Br)c2)cc1` (stereo not drawn), inactive: -9.39%.
Take `O=[N+]([O-])c1cc([N+](=O)[O-])c(NCC2CCS(=O)(=O)C2)c([N+](=O)[O-])c1` (stereo not drawn): the inhibition was inactive: -11.9%.
As to `O=[N+]([O-])c1ccc(OP2(=O)COCCO2)cc1` (stereo not drawn), the inhibition was inactive: -12.1%.
For `CCOP(C)(=S)SCC(=O)NC(C)(CC)C(=O)O` (stereo not drawn) the value was inactive: -4.01%; for `C/C1=C2N=C(/C=C3N=C(/C(C)=C4\[N-][C@@](C)([C@@H]5N=C1[C@](C)(CCC(=O)NC[C@@H](C)OP(=O)([O-])O[C@H]1[C@@H](O)[C@@H](n6cnc7cc(C)c(C)cc76)O[C@@H]1CO)[C@H]5CC(N)=O)[C@@](C)(CC(N)=O)[C@@H]4CCC(N)=O)[C@@](C)(CC(N)=O)[C@@H]\3CCC(N)=O)C(C)(C)[C@@H]/2CCC(N)=O.[C-]#N.[Co+3]`, inactive: 82%; for `CP(=O)(Nc1ccc(SC(F)(F)F)cc1)Oc1ccc(F)cc1` (stereo not drawn), inactive: 5.06%.
Turning to `Cc1ccccc1NP(C)(=O)Nc1ccccc1C`, the inhibition is inactive: -15%.
Then `CP(=O)(Nc1ccc2c(c1)OCCO2)Oc1ccccc1` (stereo not drawn), with inactive: -2.47%.
In the case of `O=[N+]([O-])c1cc([N+](=O)[O-])c(-n2nnc3ccccc32)c([N+](=O)[O-])c1`, the inhibition is inactive: -2%.
For `O=[N+]([O-])c1cc([N+](=O)[O-])c(-c2cnn(-c3ccccc3)c2)c([N+](=O)[O-])c1` the value was active: 38.5%; for `O=[N+]([O-])c1cc([N+](=O)[O-])c(Nc2nnnn2CCO)c([N+](=O)[O-])c1`, inactive: -3.35%; for `CCCOc1ccc(NP(C)(=O)Oc2ccc(Cl)cc2)cc1` (stereo not drawn), inactive: -13%.
Then `CP(=O)(Nc1ccc(SC(F)(F)F)cc1)Oc1ccccc1` (stereo not drawn), with inactive: -4.61%; and `COc1ccccc1OP(C)(=O)Nc1c(C)cccc1C` (stereo not drawn), with inactive: -6.69%.
`CN1CCCCC1COC(=O)C1(O)c2ccccc2CCc2ccccc21` (stereo not drawn): the inhibition was inactive: -1.05%.
For `O=C(O)c1cccc(Nc2c([N+](=O)[O-])cc([N+](=O)[O-])cc2[N+](=O)[O-])c1` the value was inactive: 8.55%.
`Cc1cc(C)cc(OP(C)(=O)Nc2ccc(C)cc2C)c1` (stereo not drawn): the inhibition was inactive: 2.57%.
For the compound `CCOC(=O)c1ccc(NP(C)(=O)Oc2cc(C)cc(C)c2)cc1` (stereo not drawn), the inhibition is inactive: -21.8%.
For `COc1ccccc1OP(C)(=O)Nc1cccc(Br)c1` (stereo not drawn) the value was inactive: -7.25%; for `Cc1cc(C)cc(OP(C)(=O)Nc2ccccn2)c1` (stereo not drawn), inactive: -12.2%.
For `CP(=O)(Nc1cccc(Br)c1)Oc1ccccc1` (stereo not drawn) the value was inactive: -11.5%; for `Cc1ccc(C)c(NP(C)(=O)Oc2ccccc2)c1` (stereo not drawn), inactive: -11.2%; for `CCC(CO)(C(=O)OC1CN2CCC1CC2)c1ccccc1` (stereo not drawn), inactive: 10.4%.
In the case of `Cc1cccc(C)c1OP(C)(N)=O` (stereo not drawn), the inhibition was inactive: -9.44%.
For `CC(C)(C)c1ccc(OP(C)(=O)Nc2ccc(SC(F)(F)F)cc2)cc1` (stereo not drawn) the value was inactive: 5.96%.
For `O=[N+]([O-])c1ccc2c(c1)C=Nc1ccccc1O2` the value was inactive: 24%; for `O=[N+]([O-])c1cc([N+](=O)[O-])c(Nc2cccnc2)c([N+](=O)[O-])c1`, inactive: 3.32%; for `COc1ccc(OP(C)(=O)Nc2cccc(F)c2)cc1` (stereo not drawn), inactive: -0.47%.
For `COc1ccccc1OP(C)(=O)Nc1cc(Cl)ccc1C` (stereo not drawn) the value was inactive: -1.4%.
With `Cc1cc(C)cc(OP(C)(N)=O)c1` (stereo not drawn), the inhibition is inactive: 11%.
For `CCOC(=O)c1ccc(NP(C)(=O)Oc2ccccc2)cc1` (stereo not drawn) the value was inactive: -0.47%; for `Cc1ccc(NP(C)(=O)Oc2ccccc2)c(C)c1` (stereo not drawn), inactive: -12.8%.
In the case of `COc1ccccc1OP(C)(=O)Nc1ccc(C)cc1` (stereo not drawn), the inhibition is inactive: -8.83%.
`COc1ccccc1OP(C)(=O)Nc1ccccc1` (stereo not drawn): the inhibition is inactive: 5.09%.
For `CP(=O)(Nc1ccccc1Br)Oc1ccccc1` (stereo not drawn) the value was inactive: -8.73%; for `CP(=S)(Nn1cnnc1)Oc1ccccc1` (stereo not drawn), inactive: -16.5%; for `Cc1cc(C)cc(OP(C)(=O)Nc2ccc(SC(F)(F)F)cc2)c1` (stereo not drawn), inactive: 6.61%.
For `CP(=O)(NC(=O)Nc1ccccc1)Oc1ccccc1` (stereo not drawn) the value was inactive: -7.69%; for `CCc1ccc(OP(C)(=O)N2CCN(c3ccc([N+](=O)[O-])cc3)CC2)cc1` (stereo not drawn), inactive: 7.59%; for `CP(=O)(Oc1ccccc1)OC(c1ccccc1)C(F)(F)F` (stereo not drawn), inactive: -8.01%.
Then `Cc1cccc(C)c1OP(C)(=O)Nc1ccc(SC(F)(F)F)cc1` (stereo not drawn), with inactive: 0.23%.
With `CP(=O)(Nc1ccc(SC(F)(F)F)cc1)Oc1ccc(Cl)cc1` (stereo not drawn), the inhibition is inactive: -18.4%.
Regarding `CP(=O)(Nc1ccccn1)Oc1ccc(Cl)cc1` (stereo not drawn), the inhibition is inactive: -10.7%.
Turning to `CCOP(C)(=S)SCC(=O)NC(C)C(=O)O` (stereo not drawn), the inhibition is inactive: -6.61%.
Then `CCOC(=O)c1ccc(NP(C)(=O)Oc2ccc(OC)cc2)cc1` (stereo not drawn), with inactive: 6.61%.

As a reminder, the inhibition is the change of the read-out against control, counted positive when it falls.
